Earlier results on 1 molecule are cited in US10071176B2, “Disinfection composition, disinfection method, disinfection protocol for tooth brushes, and disinfection product” (priority 2013, dated 2018).

On to `[H]/N=C(\N/C(=N/[H])NCCCCCCNC(=N)NC(=N)Nc1ccc(Cl)cc1)Nc1ccc(Cl)cc1` [Chlorhexidine, chlorhexidine], for which, for the setting “Perionews 2011”, the residual action entry is “up to 12 hours”. In addition, the “substantivity (active residence time)” value (Zanatta and Rösing 2007) is given as “approximately 12 hours”.
